Measured values: publication PMC7414181

How the values were obtained:
[1] = target: YU2E466K gp120 (HIV-1 strain YU2)
[2] = target: YU2G471R gp120 (HIV-1 strain YU2)
[3] = target: YU2G458D gp120 (HIV-1 strain YU2)

Substance: CD4-Ig (from UniProt P01730) (Fc fusion)
- Table S5: IC50 of CD4-Ig in the in vitro neutralisation of YU2E466K pseudovirus on TZM-bl cells (blocks Env from CD4 on target cells) [1]: 32.2 µg/mL
- Table S5: IC50 of CD4-Ig in the in vitro neutralisation of YU2G471R pseudovirus on TZM-bl cells (blocks Env from CD4 on target cells) [2]: 34.2 µg/mL
- Table S5: IC50 of CD4-Ig in the in vitro neutralisation of YU2G458D pseudovirus on TZM-bl cells (blocks Env from CD4 on target cells) [3]: 40 µg/mL
